Results of unrelated studies side by side (data: NIAID ChemDB).

All rows: growth or infection tests; agent: Candida albicans; endpoint: MIC80

Conditions beyond the fields shown may differ between rows. a–b is a range or a potency band. MIC50, MIC90 and the like: level of inhibition, or share of isolates inhibited.

COc1c(O)cc2oc3cc(O)cc(O)c3c(=O)c2c1OC ; strain: ATCC 663.90 ; result: 62 µg/mL
N=C(N)c1ccc(OCCCCC(=O)O)cc1 ; strain: A39 ; result: >100 µg/mL
O=C1CSC(=O)N1CC(O)(Cn1nccn1)c1ccc(F)cc1F ; strain: CaCYP51 ; result: 0.17 µg/mL
O=c1c2ccccc2oc2c(O)cccc12 ; strain: ATCC 663.90 ; result: 62 µg/mL
COc1cccc(NC(=O)CN(C)CC(O)(Cn2cncn2)c2ccc(F)cc2F)c1 ; result: 4 µg/mL
CCCCN(Cc1cn(Cc2ccc(C)cc2)nn1)CC(O)(Cn1cncn1)c1ccc(F)cc1F ; strain: Y0109 ; result: <0.125 µg/mL
CN(CC(=O)Nc1cccc([N+](=O)[O-])c1)CC(O)(Cn1cncn1)c1ccc(F)cc1F ; result: >64 µg/mL
OC(Cn1cncn1)(Cn1cncn1)c1ccc(F)cc1F ; strain: TIMM1768 (azole-susceptible) ; result: 0.25 µg/mL
CN(CCOc1ccc(CC2SC(=O)N(CC(O)(Cn3nccn3)c3ccc(F)cc3F)C2=O)cc1)c1ccccn1 ; strain: CaCYP51 ; result: 6.72 µg/mL
CCCCCCCCNC1NCCC2c3ccc(OC)cc3CCN12 ; strain: NFI0124 ; result: 16 µg/mL
Cc1nn([C@H](C)[C@](O)(Cn2cncn2)c2ccc(F)cc2F)c2cccc(F)c12 ; strain: ATCC 36082 ; result: ≤0.015 µg/mL
N=C(N)c1ccc(OCCCCCOc2ccc(/C(N)=N\O)cc2)cc1 ; strain: A39 ; result: >100 µg/mL
CN=[N+]([O-])CC[C@H](N)C(=O)O ; strain: ATCC 10231 ; result: 4.2 µg/mL
C[C@@H](c1ncncc1F)[C@](O)(Cn1cncn1)c1ccc(F)cc1F ; strain: OY-2-76 (FLU-S) ; result: 0.03 µg/mL
C[C@@H](n1nc(-c2ccccc2)c2cc([N+](=O)[O-])ccc21)[C@](O)(Cn1cncn1)c1ccc(F)cc1F ; strain: ATCC 36082 ; result: 2 µg/mL
CCCCN(Cc1cn(Cc2cccc([N+](=O)[O-])c2)nn1)CC(O)(Cn1cncn1)c1ccc(F)cc1F ; strain: Y0109 ; result: 4 µg/mL
Cn1cccc1/C=C1\SC(=O)N(CC(O)(Cn2nccn2)c2ccc(F)cc2F)C1=O ; strain: CaCYP51 ; result: 0.56 µg/mL
Cc1nn([C@H](C)[C@](O)(Cn2cncn2)c2ccc(F)cc2F)c2ccc(F)cc12 ; strain: ATCC 36082 ; result: 0.031 µg/mL
Cc1ccc(NC(=O)CN(C)CC(O)(Cn2cncn2)c2ccc(F)cc2F)cc1 ; result: 16 µg/mL
COc1ccc2c(c1)CCN1C(NCCCCCCC(C)C)NCCC21 ; strain: NFI0124 ; result: 4 µg/mL
N=C(N)c1ccc2nc(CCCc3nc4ccc(C(=N)N)cc4[nH]3)[nH]c2c1 ; strain: A39 ; result: >100 µg/mL
COc1cc(O)c2c(=O)c3cccc(O)c3oc2c1 ; strain: ATCC 663.90 ; result: >250 µg/mL
C=C(CCCCCNC1NCCC2c3ccccc3CCN12)C(C)C ; strain: NFI2103 ; result: 16 µg/mL
O=C1S/C(=C\c2ccccc2)C(=O)N1CC(O)(Cn1nccn1)c1ccc(F)cc1F ; strain: CaCYP51 ; result: 0.14 µg/mL
OC(CN1CCN(c2ccc(OCc3ccncc3)cc2)CC1)(Cn1cncn1)c1ccc(F)cc1F ; strain: 304121 ; result: 2 µg/mL
CCC(C)/C=C1\SC(=O)N(CC(O)(Cn2nccn2)c2ccc(F)cc2F)C1=O ; strain: CaCYP51 ; result: 0.31 µg/mL
C[C@@H](n1cc2c([N+](=O)[O-])cccc2n1)[C@](O)(Cn1cncn1)c1ccc(F)cc1F ; strain: ATCC 36082 ; result: ≤0.015 µg/mL
CCCCN(Cc1cn(Cc2ccc(F)cc2)nn1)CC(O)(Cn1cncn1)c1ccc(F)cc1F ; strain: Y0109 ; result: 0.0625 µg/mL
CCCCCC ; result: 250 µg/mL
NC(N)=NCc1ccc(OCCC2(Cc3cccc(Cl)c3)CCCCC2)cc1 ; strain: CAF2-1 ; result: 2.5–5 µg/mL
CO ; result: >250 µg/mL
N=C(N)c1ccc(O)cc1 ; strain: A39 ; result: >100 µg/mL
O=C1S/C(=C\c2ccc(Cl)cc2Cl)C(=O)N1CC(O)(Cn1nccn1)c1ccc(F)cc1F ; strain: CaCYP51 ; result: 0.03 µg/mL
C[C@@H](n1cc2ccc([N+](=O)[O-])cc2n1)[C@](O)(Cn1cncn1)c1ccc(F)cc1F ; strain: ATCC 36082 ; result: 0.063 µg/mL
CC(c1cccs1)C(O)(Cn1cncn1)c1ccc(Cl)cc1Cl ; result: 8 µg/mL
CCCCN(Cc1cn(Cc2ccc(Cl)cc2Cl)nn1)CC(O)(Cn1cncn1)c1ccc(F)cc1F ; strain: Y0109 ; result: 4 µg/mL
CC(C)=CCCCCCNC1NCCC2c3ccccc3CCN12 ; strain: NFI2103 ; result: 16 µg/mL

Repeating the first 3 entries:

{"smiles": "COc1c(O)cc2oc3cc(O)cc(O)c3c(=O)c2c1OC", "strain": "ATCC 663.90", "result": "62 µg/mL"}
{"smiles": "N=C(N)c1ccc(OCCCCC(=O)O)cc1", "strain": "A39", "result": ">100 µg/mL"}
{"smiles": "O=C1CSC(=O)N1CC(O)(Cn1nccn1)c1ccc(F)cc1F", "strain": "CaCYP51", "result": "0.17 µg/mL"}